Measured values from several laboratories, pooled; numbers as filed in NIAID ChemDB.

Shared fields: growth or infection tests; species: Mycobacterium tuberculosis

Blank or dashed fields: not listed here. Rows are shuffled and stem from different studies. Two numbers with a dash give a range or band. Percent inhibition refers to the dose given; in toxicity tests it is the harm to the cells. MIC bound: limit read from a one-dose screen.

SMILES	dose	strain	method	conditions	read-out	result
COc1ccccc1NC(C)=O		H37Rv			MIC	>100 µg/mL
CN1CSC(=S)N(C)C1		H37Rv	BACTEC		MIC	12.5 µg/mL
O=C(O)c1ccccc1Nc1ccccc1[N+](=O)[O-]		H37Rv			MIC	>100 µg/mL
O=C(O)c1cn(C2CC2)c2c(F)c(N3CCSCC3)c(F)cc2c1=O		Strain 24			MIC	1 µg/mL
CC(=O)Nc1ccc(C(=O)N/N=C/c2ccccc2)cc1					MIC	>40 µg/mL
Cc1ccc2oc(=S)n(-c3ccc(F)cc3)c(=S)c2c1		My 331/88		14 d	MIC	2 µM
NNC(=O)C1CCCCC1					MIC	>200 µg/mL
C#Cc1ccccc1		H37Rv			MIC	>100 µg/mL
COc1ccc(CNCCNC[C@@H]2CC[C@H]3C[C@@H]2C3(C)C)c(OC)c1					MIC	50 µM
COc1ccc2nc3cc(Cl)ccc3c(N)c2c1		H37Rv			MIC	100 µg/mL
NC[C@H]1O[C@H](O[C@H]2[C@H](O)[C@@H](O[C@H]3O[C@H](CO)[C@@H](O)[C@H](N)[C@H]3O)[C@H](N)C[C@@H]2N)[C@H](N)C[C@@H]1O		H37Rv			Mean MIC	10 µg/mL
CC1(C)S[C@@H]2[C@H](NC(=O)[C@H](N)c3ccccc3)C(=O)N2[C@H]1C(=O)O		WLM			MIC	>92 µM
COC(=O)Cc1[nH]c(=O)[nH]c1C(N)=O			resazurin		MIC bound	>6.25 µg/mL
O=C(/C=C/C(=O)c1ccccc1)NC[C@H]1CN(c2ccc(N3CCCCC3)c(F)c2)C(=O)O1		10 clinical isolates sensitive			MIC	>16 µg/mL
Cc1ccc(C(=O)c2ccc(C)cc2)cc1		H37Rv			MIC	100 µg/mL
NNC(=O)c1ccncc1		H37Ra			Mean MIC	0.025 µg/mL
O=S(=O)(O)c1cc(O)c(O)c2n[nH]nc12	6.25 µg/mL	H37Rv	resazurin		inhibition	-4%
CC(O)CN1CCCc2ccccc21		H37Rv			MIC	>100 µg/mL
Oc1cc2c(c3c(O)c4ccccc4c(O)c13)=NC1CCCCC1N=2	12.5 µg/mL	H37Rv	BACTEC		inhibition	60%
CC(C)n1c(-c2ccc(Cl)cc2)cs/c1=N\NC(=O)COc1cnccn1		H37Rv			MIC	8.7 µg/mL
CN[C@@H]1[C@@H](O)[C@@H](O[C@@H]2[C@@H](O)[C@H](O[C@H]3O[C@H](CN)CC[C@H]3N)[C@@H](N)C[C@H]2N)OC[C@]1(C)O		H37Ra			Median MIC	8 µg/mL
Cc1ccc2oc(=S)n(-c3ccccc3)c(=S)c2c1		My 331/88		14 d	MIC	0.5 µM
Cc1cc(=O)n(-c2ccccc2)c(=S)n1-c1nc2ccccc2[nH]1	6.25 µg/mL	H37Rv	resazurin		inhibition	58%
CC1COc2c(N3CCN(C)CC3)c(F)cc3c(=O)c(C(=O)O)cn1c23		H37Rv			Mean MIC	0.75 µg/mL
O=C(COc1cnccn1)N/N=c1\scc(-c2ccc(Cl)cc2)n1-c1ccc(Cl)cc1		H37Rv			MIC	23 µg/mL
FC(F)(F)c1ccc(CNCCNCCC2=CCCCC2)cc1					MIC	50 µM
CN(C)c1ccc2c(NCCCCCCNc3ccnc4cc(N(C)C)ccc34)ccnc2c1		H37Rv	BACTEC		MIC bound	>12.5 µg/mL
Cc1onc(-c2ccccc2Cl)c1C(=O)N[C@@H]1C(=O)N2[C@@H]1SC(C)(C)[C@@H]2C(=O)O		H37Ra			Mean MIC	80 µg/mL
Cc1cc(C)c2[nH]c(=O)c(C)c(C)c2c1Br		H37Rv	BACTEC		MIC bound	>6.25 µg/mL
C[C@@H]1[C@@H](NCCNCCCCc2ccccc2)C[C@H]2C[C@@H]1C2(C)C					MIC	50 µM
C[C@H]1COc2c(N3CCN(C)CC3)c(F)cc3c(=O)c(C(=O)O)cn1c23		CSU22			MIC	0.5 µg/mL
Cc1ccc(C(=N)N)cc1.Cl		H37Rv			MIC	>100 µg/mL
NNC(=O)c1ccncc1		131-4			MIC	0.05 µg/mL
NNC(=O)c1ccncc1		84396			MIC	≥0.2 µg/mL
CC1CN(c2c(F)cc3c(=O)c(C(=O)O)cn(C4CC4)c3c2F)CCN1		CSU26			MIC	0.25 µg/mL
O=C(CCC(=O)c1cccs1)NC[C@H]1CN(c2ccc(N3CCCC3)c(F)c2)C(=O)O1		10 clinical isolates sensitive			MIC	1–2 µg/mL
O=c1c(I)c[nH]cc1I		H37Rv			MIC	>100 µg/mL
Cc1ccc(C(=O)CCC(=O)NC[C@H]2CN(c3ccc(-[n+]4[nH]nc5ccccc54)c(F)c3)C(=O)O2)c(C)c1		10 clinical isolates sensitive			MIC	>16 µg/mL
O=C(NNC(=O)c1ccc([N+](=O)[O-])cc1)c1ccc([N+](=O)[O-])cc1					MIC	>200 µg/mL
Nc1ccc2c(c1)C(=O)NC2=O		H37Rv			MIC	>100 µg/mL
NC(Cc1cnc[nH]1)C(=O)NC(CO)C(=O)O		H37Rv	BACTEC		MIC bound	>12.8 µg/mL
O=C(NNS(=O)(=O)c1ccc(Cl)cc1)c1ccccc1					MIC	200 µg/mL
COc1ccc2oc(=S)n(-c3ccc(C(F)(F)F)cc3)c(=S)c2c1		My 331/88		14 d	MIC	16 µM
CC(CNCCC(c1ccccc1)c1ccccc1)NCCC1=CCCCC1					MIC	12.5 µM
NCC[C@H](O)C(=O)N[C@@H]1C[C@H](N)[C@@H](O[C@H]2O[C@H](CN)[C@@H](O)[C@H](O)[C@H]2O)[C@H](O)[C@H]1O[C@H]1O[C@H](CO)[C@@H](O)[C@H](N)[C@H]1O		H37Rv			Mean MIC	0.59 µg/mL
ON=C1CCCCC1		H37Rv			MIC	100 µg/mL
N[C@@H]1CONC1=O		H37Ra			Mean MIC	20 µg/mL
NC(=O)NOCC1NC(=O)C(CONC(N)=O)NC1=O		H37Rv	BACTEC		MIC	≥12.5 µg/mL
S=c1nn[nH]n1-c1ccccc1					MIC	>200 µg/mL
CC(=O)SCC(=O)Nc1cc(Cl)c(C)c(Cl)c1O		H37Rv			MIC	25 µg/mL
COc1cccc2c1C(=O)c1c(O)c3c(c(O)c1C2=O)C[C@](O)(/C(C)=N/NS(C)(=O)=O)C[C@H]3OC1CC(N)C(O)C(C)O1.Cl	12.5 µg/mL	H37Rv	BACTEC		inhibition	87%
OCCN1CCNC1=S		H37Rv			MIC	>100 µg/mL
CN(C)CCCN1c2ccccc2Sc2ccc(Cl)cc21		ATCC 27294			MIC	10 µg/mL
COc1ccc2oc(=O)n(-c3ccc(C)cc3)c(=S)c2c1		My 331/88		21 d	MIC	32 µM
NP(N)(=O)c1ccccc1		H37Rv			MIC	>100 µg/mL
CC(C)=NNS(=O)(=O)c1ccc(-c2ccc(S(=O)(=O)NN=C(C)C)cc2)cc1					MIC	>40 µg/mL
Cc1ccc2oc(=S)n(-c3cccc(Cl)c3)c(=S)c2c1		My 331/88		14 d	MIC	0.5 µM
CN(C)c1ccc(N=Nc2ccc3nc[nH]c3c2)cc1		H37Rv	resazurin		MIC bound	>6.25 µg/mL
CO[C@H]1/C=C/O[C@@]2(C)Oc3c(C)c(O)c4c(O)c(c(/C=N/N5CCN(C6CCCC6)CC5)c(O)c4c3C2=O)NC(=O)/C(C)=C\C=C\[C@H](C)[C@H](O)[C@@H](C)[C@@H](O)[C@@H](C)[C@H](OC(C)=O)[C@@H]1C		L400			MIC	0.1 µg/mL
CN(C)c1ccc(C(=O)O)cc1		H37Rv			MIC	100 µg/mL
CO[C@H]1/C=C/O[C@@]2(C)Oc3c(C)c(O)c4c(O)c(c(/C=N/N5CCN(C6CCCC6)CC5)c(O)c4c3C2=O)NC(=O)/C(C)=C\C=C\[C@H](C)[C@H](O)[C@@H](C)[C@@H](O)[C@@H](C)[C@H](OC(C)=O)[C@@H]1C		Aoyama B			MIC	2.5 µg/mL
O=c1cc(O)c2c(ccc3ccccc32)[nH]1	6.25 µg/mL	H37Rv	BACTEC		inhibition	0%
O=C1OC(=O)c2c(I)c(I)c(I)c(I)c21		H37Rv			MIC	100 µg/mL
C[C@@H]1CN(c2c(F)c(N)c3c(=O)c(C(=O)O)cn(C4CC4)c3c2F)C[C@H](C)N1		CSU20			MIC	≤0.125 µg/mL
CN[C@@H]1[C@H](O[C@H]2[C@H](O[C@H]3[C@H](O)[C@@H](O)[C@H](N=C(N)N)[C@@H](O)[C@@H]3N=C(N)N)O[C@@H](C)[C@]2(O)C=O)O[C@@H](CO)[C@H](O)[C@H]1O		9133			MIC	<2 µg/mL
CCCCCCCCCCCNCCNCC(O)c1ccccc1					MIC	25 µM
CC(=O)NNS(=O)(=O)c1ccc([N+](=O)[O-])cc1					MIC	100 µg/mL
CC(=O)Nc1c2sscc-2n(C)c1=O	128 µg/mL	H37Rv	BACTEC		inhibition	100%
Cc1ccc(-n2c(=O)oc3ccc(F)cc3c2=S)cc1		My 331/88		14 d	MIC	1 µM
C/C(=N/NC(=S)N1CCC(c2ccccc2)CC1)c1nccnc1C		KM-R			MIC	6.3 µg/mL
CC(C)=CCC/C(C)=C/CNCCN1CCCC2CCCCC21					MIC	25 µM
CCCCCCCCCCCC(=O)N/N=C/c1ccccc1					MIC	>40 µg/mL
Cl.N=c1c2ccccc2nc2oc3cc([N+](=O)[O-])ccc3n12		H37Rv	BACTEC		MIC bound	>12.5 µg/mL
CN[C@@H]1[C@H](O[C@H]2[C@H](O[C@H]3[C@H](O)[C@@H](O)[C@H](N=C(N)N)[C@@H](O)[C@@H]3N=C(N)N)O[C@@H](C)[C@]2(O)C=O)O[C@@H](CO)[C@H](O)[C@H]1O		H37Ra			Mean MIC	0.56 µg/mL
CCCCn1c(-c2ccc(OC)cc2)cs/c1=N\NC(=O)COc1cnccn1		H37Rv			MIC	6.6 µg/mL
Cc1nc2cnc(=Nc3ccccc3)nc-2n(-c2ccccc2)c1C		H37Rv	BACTEC		MIC	≥12.5 µg/mL
O=C(CCC(=O)c1cccs1)NC[C@H]1CN(c2ccc(-n3cncn3)c(F)c2)C(=O)O1		10 clinical isolates resistant			MIC	2–4 µg/mL
O=C(CNC(=O)c1ccccc1)N/N=C/c1ccccc1					MIC	>200 µg/mL
CC(=O)CC(=O)Nc1ccc(O)cc1		H37Rv			MIC	>100 µg/mL
NC(=O)NC(=O)c1nc2ccccc2[nH]c1=O		H37Rv	BACTEC		MIC bound	>12.5 µg/mL
Fc1ccc(CCNCCNC(c2ccccc2)c2ccccc2)cc1					MIC	50 µM
COc1c2c(c(CC=C(C)C)c3oc(=O)c(-c4ccc(O)cc4)c(O)c13)OC(C)(C)C=C2		H37Rv	BACTEC		MIC bound	>12.5 µg/mL
C[C@H](NCCNC[C@@H]1CC[C@H]2C[C@@H]1C2(C)C)C1CCCCC1					MIC	25 µM
Cc1c2ccncc2c(C)c2c1[nH]c1ccc(Cl)cc12		H37Rv	resazurin		MIC bound	<6.25 µg/mL
COc1ccc(Cc2c(C)cccc2O)c(C(=O)O)c1OC		H37Rv			MIC	>100 µg/mL
COc1ccc(-c2cs/c(=N\NC(=O)COc3cnccn3)n2CC(C)C)cc1		H37Rv			MIC	5.8 µg/mL
COc1ccc2oc(=S)n(-c3ccc(Cl)c(Cl)c3)c(=S)c2c1		My 331/88		21 d	MIC	32 µM
N#Cc1ccc(CCCBr)cc1		H37Rv			MIC	>100 µg/mL
c1ccc(CCCCNCCNCc2cccc3ccccc23)cc1					MIC	25 µM
O=[N+]([O-])c1nc2ccccc2[nH]1	6.25 µg/mL	H37Rv	resazurin		inhibition	35%
COc1ccc(Cl)cc1N.Cl		H37Rv			MIC	>100 µg/mL

A second listing of 9 rows from above:

SMILES | dose | strain | method | conditions | read-out | result
c1ccc(CCCCNCCNCc2cccc3ccccc23)cc1 |  |  |  |  | MIC | 25 µM
CC(=O)CC(=O)Nc1ccc(O)cc1 |  | H37Rv |  |  | MIC | >100 µg/mL
Cc1nc2cnc(=Nc3ccccc3)nc-2n(-c2ccccc2)c1C |  | H37Rv | BACTEC |  | MIC | ≥12.5 µg/mL
CC(CNCCC(c1ccccc1)c1ccccc1)NCCC1=CCCCC1 |  |  |  |  | MIC | 12.5 µM
Cl.N=c1c2ccccc2nc2oc3cc([N+](=O)[O-])ccc3n12 |  | H37Rv | BACTEC |  | MIC bound | >12.5 µg/mL
COc1ccc2oc(=O)n(-c3ccc(C)cc3)c(=S)c2c1 |  | My 331/88 |  | 21 d | MIC | 32 µM
O=c1cc(O)c2c(ccc3ccccc32)[nH]1 | 6.25 µg/mL | H37Rv | BACTEC |  | inhibition | 0%
COc1ccc(Cc2c(C)cccc2O)c(C(=O)O)c1OC |  | H37Rv |  |  | MIC | >100 µg/mL
Cc1ccc(C(=N)N)cc1.Cl |  | H37Rv |  |  | MIC | >100 µg/mL